Pooled drug test results. Numbers come from NIAID ChemDB, via PubChem.

Common to all: tests in culture; species: HIV-1; cells: MT-4; read by: p24; measure: EC95

ECn is the concentration giving n% inhibition of infection, replication or growth. a–b is a range or a potency band. An empty or dashed field is not shown. Conditions beyond the fields shown may differ between rows.

structure	strain	mutations	value
CC1NCCn2c1nc(C(=O)NCc1ccc(F)cc1)c(O)c2=O			<50 µM
CC(C)[C@H](NC(=O)OCc1ccccn1)C(=O)N[C@@H](Cc1ccccc1)[C@@H](O)C[C@H](Cc1ccccc1)NC(=O)OCc1cccnc1	NL4-3	PR-L10R M46I V82T	1.5 µM
NS(=O)(=O)c1ccc(NC(=O)COc2cccc(Oc3ccccc3)c2)c(Cl)c1			<20 µM
O=C1c2c(O)c(=O)n(-c3ccc(N4CCOCC4)nc3)c(=O)n2CCN1Cc1ccc(F)cc1			<10 µM
N#Cc1cc(Cl)cc(Oc2cc(OCc3nc4cccc(Cl)c4o3)ccc2Cl)c1			<20 µM
CC(C)n1c(=O)c(O)c2n(c1=O)CCN(Cc1cc3ccccc3cn1)C2=O			<10 µM
N#Cc1cc(Cl)cc(Oc2cc(F)cc(OCc3[nH]nc4ncccc34)c2)c1			<20 µM
CON(C)CCC1CN(Cc2ccc(F)cc2)C(=O)c2c(O)c(=O)n(C(C)C)c(=O)n21			<10 µM
CN(C)CC1c2nc(C(=O)NCc3ccc(F)cc3)c(O)c(=O)n2CCN1Cc1cocn1			1–10 µM
N#Cc1cc(Cl)cc(Oc2cc(F)c(Cl)c(OCc3[nH]nc4ncccc34)c2)c1			<20 µM
CN1CCn2c(nc(C(=O)NCc3ccc(F)cc3)c(O)c2=O)C(NS(C)(=O)=O)C1			<50 µM
N#Cc1cc(Cl)cc(Oc2cc(Cl)cc(OCC(=O)NC3CCS(=O)(=O)C3)c2)c1			<20 µM
CN1CCn2c(nc(C(=O)NCc3ccc(F)cc3)c(O)c2=O)C(N(CC2CCCCC2)C(=O)C(=O)N(C)C)C1			<1 µM
CC(c1ccccn1)n1c(=O)c(O)c2n(c1=O)CCN(Cc1ccc(F)cc1)C2=O			<10 µM
CN(C)C(=O)C(=O)N(C)C1CN(Cc2ccccc2)CCn2c1nc(C(=O)NCc1ccc(F)cc1)c(O)c2=O			<1 µM
CC(C)n1c(=O)c(O)c2n(c1=O)C[C@@H]1CC[C@H](c3ccccc3)N1C2=O			<10 µM

Repeating the final 2 entries:

structure,strain,mutations,value
CN(C)C(=O)C(=O)N(C)C1CN(Cc2ccccc2)CCn2c1nc(C(=O)NCc1ccc(F)cc1)c(O)c2=O,,,<1 µM
CC(C)n1c(=O)c(O)c2n(c1=O)C[C@@H]1CC[C@H](c3ccccc3)N1C2=O,,,<10 µM